Assay results reported in patent US20240122867A1, “CORONAL PROTEIN-COATED NANOPARTICLES AND USES THEREOF” (UNIVERSITY OF CENTRAL FLORIDA RESEARCH FOUNDATION, INC., priority 2021, published 2024).

B1: Tubulin beta-3 chain (protein, UniProt Q9ERD7 1-450, looked up)
Tubulin beta-3 chain: MREIVHIQAGQCGNQIGAKFWEVISDEHGIDPSGNYVGDSDLQLERISVYYNEASSHKYVPRAILVDLEPGTMDSVRSGAFGHLFRPDNFIFGQSGAGNNWAKGHYTEGAELVDSVLDVVRKECENCDCLQGFQLTHSLGGGTGSGMGTLLISKVREEYPDRIMNTFSVVPSPKVSDTVVEPYNATLSIHQLVENTDETYCIDNEALYDICFRTLKLATPTYGDLNHLVSATMSGVTTSLRFPGQLNADLRKLAVNMVPFPRLHFFMPGFAPLTARGSQQYRALTVPELTQQMFDAKNMMAACDPRHGRYLTVATVFRGRMSMKEVDEQMLAIQSKNSSYFVEWIPNNVKVAVCDIPPRGLKMSSTFIGNSTAIQELFKRISEQFTAMFRRKAFLHWYTGEGMDEMEFTEAESNMNDLVSEYQQYQDATAEEEGEMYEDDDEESEAQGPK
B2: Vitamin D-binding protein (protein, UniProt P21614 17-476, looked up)
Vitamin D-binding protein: LERGRDYEKDKVCNELAMLGKEDFRSLSLILYSRKFSSSTFEQVNQLVKEVVSLTEECCAEGADPTCYDTRTSELSVKSCESDAPFPVHPGTPECCTKEGLERKLCMAALSHQPQEFPTYVEPTNDEICEAFRRDPKGFADQFLYEYSSNYGQAPLPLLVAYTKNYLSMVGSCCTSANPTVCFVKERLQMKHLSLLTTMSNRVCSQYAAYGKEKSRLSHLIKLAQKVPTANLENVLPLAEDFTEILSRCCESTSEDCMASELPEHTIKICQNLSKKNSKFEECCQENTPMNIFMCTYFMPAAEPLQLPAIKLPTGKDLCGQSTTQAMDQYTFELSRRTQVPEVFLSKVLEPTLKTLRECCDTQDSVACFSTQSPLLKRQLTSFIEKGQEMCADYSENTFTEYKKKLAERLRTKTPNTSPAELKDMVEKHSDFASKCCSINSPPLYCSSQIDAEMIDTLQS
B3: Vasculin-like protein 1 (protein, UniProt Q6NZP2 1-473, looked up)
Vasculin-like protein 1: MAQHDFVPAWLNFSTPQSSKSSTATFDKHGEHLSRGEGRFGISRRRHNSSDGFFNNGPLRTTGDSWHQPSLFRHDSVDSGVSKGAYAGTTGWHGSSRGHDGMSQRSGGSSTGNHRHWNGSFHSRKGCAFQEKTPTEIREEKKEDKVEKLQFEEEDFPSLNPEAGKQNQPCRPVGTPSGVWENPPSAKQPSKMLVIKKISKEDPAAAFSAAFTSSGSHHANGNKVSTMVPSVYKNLVPKPAPPPSKPNAWKANRTEHKPGSLCSSRESAFTNPISVTKPVGLAAGAGLHSPKESPSSTTPPIEISSSRLTKLTRRTTDRKSEFLKTLKDERNGDCSESRDCDKLEGLRLEGSHTPEPKENGEQGCLQNGLSLPMVEEGEVLSHSLEAEHRLLKAMGWQEYPENDESCLPLTEDELKEFHLRTEQLRRNGFGKNGLLQSRSCSLSSPWRSTCIAECEDSDSETSSSQTSDDDAWK
B4: Phospholipid transfer protein (protein, UniProt P55065 18-493, looked up)
Phospholipid transfer protein: ELPGCKIRVTSAALDLVKQEGLRFLEQELETITIPDVYGAKGHFYYNISDVRVTQLHLISSELHFQPDQDLLLNISNASLGLHFRRQLLYWFLYDGGYINASAEGVSIRTGLQLSQDSSGRIKVSNVSCEASVSKMNMAFGGTFRRMYNFFSTFITSGMRFLLNQQICPVLYHAGTVLLNSLLDTVPVRSSVDDLVGIDYSLLKDPVVSNGNLDMEFRGAFFPLKEDNWSLPNRAVEPQLEDDERMVYVAFSEFFFDSAMESYFQAGALQLTLVGDKVPSDLDMLLRATYFGSIVLLSPTVINSPLKLKLEATSPPRCTIKPSGTTISITASVTITLAPPMLPEVELSKMIMEGRLSAKLTLRGKALRVKLDLRRFQIYSNQSALESLALIPLQAPLKTLLQIGVMPLLNERTWRGVQIPLPEGINFVREVVTNHAGFVTVGADLHFAKGLREVIDKNRPADVAASHVPPPSAAAA
B5: Tubulin beta-1 chain (protein, UniProt A2AQ07 1-451, looked up)
Tubulin beta-1 chain: MREIVHIQIGQCGNQIGAKFWEVIGEEHGIDCAGSYCGTSALQLERISVYYNEAYGKKYVPRAVLVDLEPGTMDSIRSSRLGVLFQPDSFVHGNSGAGNNWAKGHYTEGAELIENVMDVVRRESESCDCLQGFQIVHSLGGGTGSGMGTLLMNKIREEYPDRILNSFSVMPSPKVSDTVVEPYNAVLSIHQLIENTDACFCIDNEALYDICFRTLRLTTPTYGDLNHLVSLTMSGITTSLRFPGQLNADLRKLAVNMVPFPRLHFFMPGFAPLTAQGSQQYRALSVAELTQQMFDARNIMAACDPRRGRYLTVACIFRGKMSTKEVDQQLLSIQTRNSNCFVEWIPNNVKVAVCDIPPRGLNMAATFLGNNTAIQELFTRVSEHFSAMFRRRAFVHWYTSEGMDISEFGEAESDIHDLVSEYQQFQDVRAGLEDSEEDVEEAEVEAEDKDH
B6: Keratin, type I cytoskeletal 13 (protein, UniProt P08730 1-437, looked up)
Keratin, type I cytoskeletal …: MSCRFQSSSMSYGGGFGAGSCQLGGGRNISSCSSRFVTGGSAGGYGGGMSCGFGGGAGGGFGGGFGGGFGGSYGGGFGGGFGDFGGVDGGLLSGNEKITMQNLNDRLASYLDKVRALEAANADLEVKIRDWHLKQSPASPERDYSAYYKTIEELRIKILEATTDNNRIILEIDNARLAADDFRLKYENELTLRQSVEADINGLRRVLDELTLAKTDLEMQIESLNEELAYLKKNHEEEMKEFSNQVVGQVNVEMDATPGIDLTRVLAEMREQYEALAEKNRRDAEEWFQTKSAELNKEVSSNAEMIQTSKTEITELRRTLQGLEIELQSQLSMKAGLESTLAETECRYALQLQQIQGLISSIEAQLSELRSEMECQNQEYKMLLDIKTRLEQEIATYRSLLEGQDAKMTGFNSGGNNTTTSNGSPSSNSGRPDFRKY
B7: Inter alpha-trypsin inhibitor, heavy chain 4 (protein, UniProt A6X935 29-942, looked up)
Inter alpha-trypsin …: EKNGIDIYSLTVDSRVSSRFAHTVVTSRVVNRADAVQEATFQVELPRKAFITNFSMIIDGVTYPGVVKEKAEAQKQYSAAVGRGESAGIVKTTGRQTEKFEVSVNVAPGSKITFELIYQELLQRRLGMYELLLKVRPQQLVKHLQMDIYIFEPQGISILETESTFMTPELANALTTSQNKTKAHIRFKPTLSQQQKSQSEQDTVLNGDFIVRYDVNRSDSGGSIQIEEGYFVHHFAPENLPTMSKNVIFVIDKSGSMSGKKIQQTREALVKILKDLSPQDQFNLIEFSGEANQWKQSLVQATEENLNKAVNYASRIRAHGGTNINNAVLLAVELLDRSNQAELLPSKSVSLIILLTDGDPTVGETNPTIIQNNVREAINGQYSLFCLGFGFDVNYPFLEKMALDNGGLARRIYEDSDSALQLQDFYHEVANPLLSSVAFEYPSDAVEEVTRYKFQHHFKGSEMVVAGKLQDQGPDVLLAKVSGQMHMQNITFQTEASVAQQEKEFKSPKYIFHNFMERLWALLTIQQQLEQRISASGAELEALEAQVLNLSLKYNFVTPLTHMVVTKPEGQEQFQVAEKPVEVGDGMQRLPLAAQAHPFRPPVRGSKLMTVLKGSRSQIPRLGDAVRASRQYIPPGFPGPPGPPGFPAPPGPPGFPAPPGPPLASGSDFSLQPSYERMLSLPSVAAQYPADPHLVVTEKSKESTIPEESPNPDHPQVPTITLPLPGSSVDQLCVDILHSEKPMKLFVDPSQGLEVTGKYENTGFSWLEVTIQKPHLQVHATPERLVVTRGRKNTEYKWKKTLFSVLPGLKMTMNMMGLLQLSGPDKVTIGLLSLDDPQRGLMLLLNDTQHFSNNVKGELGQFYRDIVWEPPVEPDNTKRTVKVQGVDYLATRELKLSYQEGFPGAEISCWTVEI

System: coronal proteins on NPs
Design: species or system mouse
Settings: for V5 Sera_Nanoparticles Quantitative Value (Normalized Total Spectra): 20:1 NP:sera, centrifuged and washed; for V5 Sera Alone (Control) Quantitative Value (Normalized Total Spectra): IAV day 5 (V5) mouse sera alone
[1] = HBPE-NPs incubated with IAV day 5 (V5) mouse sera 1 h
[2] = no NPs, mass spectrometry protein identification
[3] = HBPE-NPs incubated 1 h with IAV day 5 (V5) mouse sera

| Molecule | V5 Sera_Nanoparticles Quantitative Value (Normalized Total Spectra) [1] | V5 Sera Alone (Control) Quantitative Value (Normalized Total Spectra) [2] | V5 Sera_Nanoparticles Quantitative Value (Normalized Total Spectra) [3] | V5 Sera Alone (Control) Quantitative Value (Normalized Total Spectra) (no NPs (sera-only control)) |
| --- | --- | --- | --- | --- |
| B1 | 0 | 1.8505 | – | – |
| B2 | – | – | 33.726 | 36.084 |
| B3 | 0 | 0.9252 | – | – |
| B4 | – | – | 0 | 9.2523 |
| B5 | 0 | 0.9252 | – | – |
| B6 | 0 | 0.9252 | – | – |
| B7 | – | – | 35.901 | 70.317 |

Where two headings read alike, the source gives them in different places.
